The assay deals with 85RF45.1 Fab. Briefly: BLI. The conditions noted are these: Fab concentrations of 250, 125, 62.5, and 31.3 nM.

This is an account of results in article PMC6203815.

As to Pfs48/45 6C domain (NF54) I349V, the Kd was 1.7 nM.

With Pfs48/45 6C domain (NF54) Q355L, the Kd was found to be 17.1 nM.

What is called Kd is the concentration at which binding is half-saturated. A low value points to higher affinity.
